## Results of single-concentration screens

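Whole-cell growth test on Mycobacterium tuberculosis, read after 3 days in glucose-containing 7H9 medium; the read-out is not stated. Compounds at 500 µM. Direction is inferred from retests: higher values go with more growth inhibition. Of about 18,000 compounds tested this way, about 1,400 (7.9%) reached 50% or more in at least one test.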

Each number is a percent effect as filed.
How 0% and 100% were set is not recorded. Most values in the screen are low, and negative values occur.
Many other results are left out here, so strong results are more common than in the screen.

structure | effect
COc1cc(Br)c(CN)cc1OC | 13.43
COc1cccc(NC(=O)CCN2C(=O)CCC2=O)c1 | -4.727
O=C(CN1CCS(=O)(=O)CC1)N1CCc2sccc2C1 | 8.931
C=C(C)COc1cccc(F)c1C(N)=O | -4.386
CNCc1cccc(OC)n1 | 8.913
O=C(c1ccc(Br)o1)N1CCNCC1 | 6.405
CCCc1cc(CN(C)C(=O)c2ccnnc2)n[nH]1 | 13.18
CC(=O)NC1CCN(C2CCCCC2)CC1 | -1.108
O=C(CSc1cnn[nH]1)Nc1ccc(Cl)cn1 | 64.78
Nc1ccc(CN2CCN(CCO)CC2)cn1 | 1.079
CNC(=O)C1CCCCN1C(=O)Cn1nc(C)cc1N (centres unmarked) | -0.2409
CC1CCCCN1CC(=O)N1CCN(S(C)(=O)=O)CC1 (centres unmarked) | -10.38
CC(Oc1ccccc1)C(=O)NC1CCN(C)CC1 (centres unmarked) | 11.68
C[C@@H]1CN(C(=O)c2cccc3cc[nH]c23)CCN1 | 31.61
CC(C)n1cc(C(=O)NCCC2CN(C)CCO2)cn1 (centres unmarked) | 3.467
C/C=C/c1ccc(OCCN2CCNCC2)c(OC)c1 | 49.52
Cc1cc(C)cc(NC(=O)CCNS(C)(=O)=O)c1 | 5.815
COc1ccc(C(=O)CCN(C)C)cc1 | 105.3
CCCc1nnc(NC2CCN(C(=O)OCC)CC2)o1 | 59.68
CN(C)c1cc(CNC(=O)C2CCOCC2)ccn1 | -5.101
Cc1cc(C(=O)N2C[C@@H](CO)[C@H](N(C)C)C2)on1 | 7.206
COCC(C)(N)c1ccccc1 (centres unmarked) | -3.394
NCCCc1nc2ccccc2o1 | 61.32
Cc1ccc(S(=O)(=O)NCC(C)N)cc1F (centres unmarked) | 5.588
CC(C)(N)CN1CCCC1 | 1.595
CCNCC1CCOC1 (centres unmarked) | -3.174
O=c1[nH]c(CN2CCOCC2)nc2ccsc12 | -8.485
COCCCN(C)C(C(N)=O)c1ccccc1 (centres unmarked) | -2.24
CCOC(=O)CNC(=O)Nc1ccc(C#N)cc1 | 9.463
O=C(NCCN1CCCC1)c1ccccc1F | 15.96
OC1(Cc2ccncc2)CCNCC1 | 6.059
Cn1nnnc1SCC(=O)Nc1cc(Cl)ccc1C#N | 7.832
Cn1cnnc1CN1CCC(C2CCOCC2)CC1 | 0.92
CN(Cc1ccncc1)S(=O)(=O)c1ccc(C#N)cc1 | 38.72
OC(CN1CCCSCC1)c1ccc(F)cc1 (centres unmarked) | 53.55
COc1ccc(OC)c(NC(=O)c2ccccn2)c1 | 82.36
Cc1cccc(CC(=O)NCC2CCNCC2)c1 | 1.16
NC(=O)[C@@H]1CCCN1 | 3.771
CN(C)c1nc(N)nc(CN2CCC(C(N)=O)CC2)n1 | -4.229
CN1CCc2nc(NC(=O)CC(C)(C)C)sc2C1 | 63.64
NS(=O)(=O)c1ccc(OCC(F)(F)F)nc1 | 4.259
CCC(N)c1ccccc1OC (centres unmarked) | 50.19
CNC(=O)c1cc(S(=O)(=O)Nc2ccccn2)cs1 | -6.158
CO[C@H]1CNCC1NS(=O)(=O)CCOC(C)C (some centres unmarked) | 9.766
N#Cc1cccc(C(=O)OCCCn2cccn2)c1 | 51.41
Cc1ncsc1C(=O)NCc1ccnc(N(C)C)c1 | 16.03
CN(C)CCNCCOCCO | -15.18
Cc1nccc(C(=O)Nc2ccccn2)n1 | 6.614
O=C(NCCN1CCCC1)c1ccc2ccccc2n1 | 80.38
O=C(CNC(=O)c1cccs1)c1ccccc1 | 53.73
OCC1CSc2ccccc21 (centres unmarked) | 24.2
CC(C)(C)OCC(O)CNCc1cccs1 (centres unmarked) | 8.7
CSCc1ccc(C(=O)NCCc2cccnc2)o1 | 35.56
O=C(Nc1cccnc1N1CCC(CO)CC1)C1CC1 | 56.91
CCC(CC)C(CN)N1CCCC1 (centres unmarked) | 49.44
OC(CN1CCn2ccnc2C1)c1ccc(Cl)cc1 (centres unmarked) | 65.35
Cc1cc(Cl)ccc1OCC(=O)N[C@@H]1CCOC[C@H]1O | 22.17
O=C(CN(CCO)C1CC1)NC1CCN(C2CC2)CC1 | 8.928
CCC1CN(S(=O)(=O)N2CCCCC2)CCO1 (centres unmarked) | 40.83
CC(C)NC(=O)CNCc1ccccc1OC(F)F | 23.48
Cc1noc(CSc2ccc(C(=O)N3CCC3)cc2)n1 | 53.4
CN(C(=O)CSCC#N)C1CCCCC1 | 34.88
O=c1[nH]cnc2cccc(O)c12 | -1.923
CC1(C)CN(C(=O)c2ncncc2Cl)CC[S+]1[O-] (centres unmarked) | -11.07
CC1CN(c2cc(C(F)(F)F)ccn2)CCS1(=O)=O (centres unmarked) | -0.8382
Cc1ccc(C)c(S(=O)(=O)NC2CCS(=O)(=O)C2)c1 (centres unmarked) | 24.82
Cc1ncsc1CCN(C)C(=O)c1cnc(O)cn1 | 5.499
N[C@@H]1CCOc2cc(F)ccc21 | 33.88
O=C1CCCN1CCN1CCCC(CO)(CC2CC2)C1 (centres unmarked) | 13.07
CN1C(=O)COc2cc(NC(=O)C3CC=CC3)ccc21 | -4.962
Cc1cc(C(=O)N2C[C@@H](CO)[C@H](N(C)C)C2)c(C)o1 | 17.62
Cc1noc(Cn2cc(S(=O)(=O)N(C)C)ccc2=O)n1 | 9.51
COc1cccc(N2CCNCC2C)c1 (centres unmarked) | 79.3
Cc1cc(N2CCN(CCO)CC2)nc2ccccc12 | -7.567
CN(C(=O)CCc1ccnn1C)C1CCNCC1 | -7.471
CCNc1ncc(C(=O)NCc2ccncc2)cn1 | 17.85
O=C(CCc1ccccc1)N1CC(c2cccnc2)C1 | 65.55
CCN1C[C@H](NC(=O)c2snnc2C(C)C)[C@@H](OC)C1 | -0.6144
Cc1noc(C)c1CNC(=O)c1csc(S(N)(=O)=O)c1 | 64.63
O=C(Nc1nc(C2CC2)cs1)C1CNCCO1 (centres unmarked) | 19.72
COCC(=O)NCCc1ccccc1F | 35.31
CC(=O)Nc1cccn(CC(F)(F)F)c1=O | -12.54
CC(=O)Nc1cccc(-n2nnnc2SCC#N)c1 | 4.076
OCCN(CCO)Cc1cc(F)cc(Br)c1 | 29.78

The last 6 entries again:

{"structure": "Cc1noc(C)c1CNC(=O)c1csc(S(N)(=O)=O)c1", "effect": 64.63}
{"structure": "O=C(Nc1nc(C2CC2)cs1)C1CNCCO1", "stereo": "centres unmarked", "effect": 19.72}
{"structure": "COCC(=O)NCCc1ccccc1F", "effect": 35.31}
{"structure": "CC(=O)Nc1cccn(CC(F)(F)F)c1=O", "effect": -12.54}
{"structure": "CC(=O)Nc1cccc(-n2nnnc2SCC#N)c1", "effect": 4.076}
{"structure": "OCCN(CCO)Cc1cc(F)cc(Br)c1", "effect": 29.78}

From ChEMBL document CHEMBL3988442, “University of Dundee, Small-Polar-MMV Screening Library” (2021).